Pooled drug test results. Numbers come from NIAID ChemDB, via PubChem.

Shared fields: growth or infection tests; agent: Yellow fever virus; read-out: EC50

Conditions beyond the fields shown may differ between rows. ECn is the concentration giving n% inhibition of infection, replication or growth. Blank or dashed fields: not listed here.

SMILES	strain or isolate	cells	value
C[C@@]1(O)[C@H](O)[C@@H](COP(=O)(O)OP(=O)(O)OP(=O)(O)O)O[C@H]1n1ccc2c(N)ncnc21		VERO	15 µM
N=C(N)c1ncn([C@@H]2O[C@H](CO)[C@@H](O)[C@H]2O)n1			>100 µM
O=c1cnn([C@@H]2O[C@H](CO)[C@@H](O)[C@H]2O)c(=O)[nH]1	Asibi	VERO	0.49 µg/mL
CC1(CO)O[C@H](n2cnc3c(N)ncnc32)[C@@H](O)[C@H]1O		HepG2.2.15	>10 µM
Nc1nc(=O)n2ccn([C@H]3C[C@H](O)[C@@H](CO)O3)c2n1			>100 µM
CCCCNC(=S)N=Nc1c(O)n(CN2CCOCC2)c2ccc([N+](=O)[O-])cc12		VERO	>20 µg/mL
C[C@]1(CO)O[C@@H](n2cc(F)c(N)nc2=O)[C@H](O)[C@@H]1O		HepG2.2.15	>10 µM
NC(=O)c1[nH]nc([C@@H]2O[C@H](CO)[C@@H](O)[C@H]2O)c1O	Asibi	VERO	0.66 µg/mL
O=C1Nc2ccc([N+](=O)[O-])cc2/C1=N/N=C1/SCC(=O)N1c1ccc(Cl)cc1		VERO	1.52 µg/mL
CN[C@H]1C[C@@H](n2cnc3c(N)ncnc32)[C@H](O)[C@@H]1O		HFF	>100 µg/mL
Cc1ccc(NC(=S)N=Nc2c(O)n(CN3CCOCC3)c3ccc([N+](=O)[O-])cc23)cc1		VERO	3.06 µg/mL
C[C@@]1(O)[C@H](O)[C@@H](CO)O[C@H]1n1ccn2c(=O)nc(N)nc12			>100 µM
O=c1cnn([C@@H]2O[C@H](COP(=O)(O)O)[C@@H](O)[C@H]2O)c(=O)[nH]1	Asibi	VERO	3.93 µg/mL
O=[N+]([O-])c1ccc2[nH]c(O)c(N=NC(=S)Nc3ccc(Br)cc3)c2c1		VERO	<0.8 µg/mL
Brc1ccc(Cn2ccc3nc(-c4ccccc4)nc-3c2)cc1	17D	VERO	>50 µM
Nc1nc2c(ncn2[C@@H]2O[C@H](CO)C(O)(C(F)(F)F)[C@H]2O)c(=O)[nH]1			≥100 µM
CC(=O)OC[C@H]1O[C@@H](n2ncc(=O)[nH]c2=O)[C@H](OC(C)=O)[C@@H]1OC(C)=O	Asibi	VERO	3.1 µg/mL
Nc1nc(=O)n2ccn([C@@H]3O[C@H](CO)C[C@H]3O)c2n1			>100 µM
CC(=O)OC[C@H]1O[C@@H](n2ncc(=S)[nH]c2=O)C(OC(C)=O)C1OC(C)=O	Asibi	VERO	44.8 µg/mL
O=C(Nc1nccc2c1ncn2[C@@H]1C[C@H](CO)[C@@H](O)[C@H]1O)c1ccccc1	Asibi	MK2	70 µg/mL
Nc1ncn(C[C@@H](O)CO)c(=O)n1		VERO	>100 µg/mL
O=c1cnn([C@@H]2O[C@H](CO)[C@@H](O)[C@H]2O)c(=S)[nH]1	Asibi	VERO	1.82 µg/mL

2 of the rows above, restated:

| SMILES | strain or isolate | cells | value |
|---|---|---|---|
| C[C@@]1(O)[C@H](O)[C@@H](COP(=O)(O)OP(=O)(O)OP(=O)(O)O)O[C@H]1n1ccc2c(N)ncnc21 |  | VERO | 15 µM |
| C[C@]1(CO)O[C@@H](n2cc(F)c(N)nc2=O)[C@H](O)[C@@H]1O |  | HepG2.2.15 | >10 µM |